A mixed list of measured activities; the numbers were collected in NIAID ChemDB.

All rows: growth or infection tests; agent: Mycobacterium avium complex; read-out: MIC

Rows are shuffled and stem from different studies.

SMILES,strain or isolate,value
CO[C@H]1/C=C/O[C@@]2(C)Oc3c(C)c(O)c4c(O)c(c(/C=N/N5CCN(C)CC5)c(O)c4c3C2=O)NC(=O)/C(C)=C\C=C\[C@H](C)[C@H](O)[C@@H](C)[C@@H](O)[C@@H](C)[C@H](OC(C)=O)[C@@H]1C,1423/HIV+,8 µg/mL
Clc1ccc(CSc2nc3ccccc3[nH]2)cc1,MY330/88,>32 µM
CCCCCCn1c(C)c(CN2CCOCC2)c(CN2CCOCC2)c1-c1ccc(Cl)cc1,103317,>64 µg/mL
CC1CN(c2c(F)cc3c(=O)c(C(=O)O)cn(C4CC4)c3c2F)CCN1,PI12/39,1 µg/mL
Clc1ccccc1C(c1ccccc1)(c1ccccc1)n1ccnc1,MO-1,0.015 µg/mL
CN[C@@H]1[C@@H](O)[C@@H](O[C@@H]2[C@@H](O)[C@H](O[C@H]3O[C@H](CN)CC[C@H]3N)[C@@H](N)C[C@H]2N)OC[C@]1(C)O,Isolate 135,6.25 µg/mL
CN[C@@H]1[C@H](O[C@H]2[C@H](O[C@H]3[C@H](O)[C@@H](O)[C@H](N=C(N)N)[C@@H](O)[C@@H]3N=C(N)N)O[C@@H](C)[C@]2(O)C=O)O[C@@H](CO)[C@H](O)[C@H]1O,13887 (serotype 14),1.6 µg/mL
CO[C@H]1/C=C/O[C@@]2(C)Oc3c(C)c(O)c4c(O)c(c5c(c4c3C2=O)NC2(CCN(CC(C)C)CC2)N=5)=NC(=O)/C(C)=C\C=C\[C@H](C)[C@H](O)[C@@H](C)[C@@H](O)[C@@H](C)[C@H](OC(C)=O)[C@@H]1C,101,2 µg/mL
NCC[C@H](O)C(=O)N[C@@H]1C[C@H](N)[C@@H](O[C@H]2O[C@H](CN)[C@@H](O)[C@H](O)[C@H]2O)[C@H](O)[C@H]1O[C@H]1O[C@H](CO)[C@@H](O)[C@H](N)[C@H]1O,30 isolates,4–16 µg/mL
NNC(=O)c1ccncc1,1124,4 µg/mL
Nc1ncnc2c1ccn2[C@@H]1O[C@H](CO)[C@@H](O)[C@H]1O,32 isolates,16 µg/mL
CC1CCN(c2c(F)cc3c(=O)c(C(=O)O)cn(C4CC4)c3c2F)C1,1760694,8 µg/mL
CC[C@H]1OC(=O)[C@H](C)[C@@H](O[C@H]2C[C@@](C)(OC)[C@@H](O)[C@H](C)O2)[C@H](C)[C@@H](O[C@@H]2O[C@H](C)C[C@H](N(C)C)[C@H]2O)[C@](C)(OC)C[C@@H](C)C(=O)[C@H](C)[C@@H](O)[C@]1(C)O,LPR,1 µg/mL
O=C(Nc1ccc(C(=O)O)c(O)c1)c1ccccc1,32 isolates,10 µg/mL
CO[C@H]1/C=C/O[C@@]2(C)Oc3c(C)c(O)c4c(O)c(c(/C=N/N5CCN(C)CC5)c(O)c4c3C2=O)NC(=O)/C(C)=C\C=C\[C@H](C)[C@H](O)[C@@H](C)[C@@H](O)[C@@H](C)[C@H](OC(C)=O)[C@@H]1C,CIPT 140310012,0.1 µg/mL
CN[C@@H]1[C@H](O[C@H]2[C@H](O[C@H]3[C@H](O)[C@@H](O)[C@H](N=C(N)N)[C@@H](O)[C@@H]3N=C(N)N)O[C@@H](C)[C@]2(O)CO)O[C@@H](CO)[C@H](O)[C@H]1O,32 isolates,5 µg/mL
CCN(CC)CC1CCN(c2c(F)cc3c(=O)c(C(=O)O)cn(C4CC4)c3c2F)C1,PI12/39,2 µg/mL
CN[C@@H]1[C@H](O[C@H]2[C@H](O[C@H]3[C@H](O)[C@@H](O)[C@H](N=C(N)N)[C@@H](O)[C@@H]3N=C(N)N)O[C@@H](C)[C@]2(O)C=O)O[C@@H](CO)[C@H](O)[C@H]1O,N-966,16 µg/mL
CCC1CCN(c2c(F)cc3c(=O)c(C(=O)O)cn(C4CC4)c3c2F)C1,1760694,8 µg/mL
CC[C@H]1OC(=O)[C@H](C)[C@@H](O[C@H]2C[C@@](C)(OC)[C@@H](O)[C@H](C)O2)[C@H](C)[C@@H](O[C@@H]2O[C@H](C)C[C@H](N(C)C)[C@H]2O)[C@](C)(O)C[C@@H](C)/C(=N\OCOCCOC)[C@H](C)[C@@H](O)[C@]1(C)O,30 isolates,2–16 µg/mL
O=C(O)c1cn(C2CC2)c2c(F)c(N3CC4CCCC(C3)N4)c(F)cc2c1=O,1760694,4 µg/mL
NC[C@@H]1O[C@H](O[C@H]2[C@@H](O)[C@H](O[C@@H]3[C@@H](O)[C@H](N)C[C@H](N)[C@H]3O[C@H]3O[C@H](CN)[C@@H](O)[C@H](O)[C@H]3N)O[C@@H]2CO)[C@H](N)[C@@H](O)[C@@H]1O,32 isolates,8 µg/mL
CO[C@@]1(NC(=O)C(C(=O)O)c2ccc(O)cc2)C(=O)N2C(C(=O)O)=C(CSc3nnnn3C)CO[C@@H]21,31 strains,32 µg/mL
CCc1cc(C(N)=S)ccn1,32 isolates,10 µg/mL
NC[C@H]1O[C@H](O[C@H]2[C@H](O)[C@@H](O[C@H]3O[C@H](CO)[C@@H](O)[C@H](N)[C@H]3O)[C@H](N)C[C@@H]2N)[C@H](O)[C@@H](O)[C@@H]1O,isolate C-22 23 25 36 41 33,>400 µg/mL
O=[N+]([O-])c1cccc(CSc2nc3ccccc3[nH]2)c1,MY330/88,>62 µM
CC[C@@H](CO)NCCN[C@@H](CC)CO,13011 (serotype 16),3.2 µg/mL
NCC[C@H](O)C(=O)N[C@@H]1C[C@H](N)[C@@H](O[C@H]2O[C@H](CN)[C@@H](O)[C@H](O)[C@H]2O)[C@H](O)[C@H]1O[C@H]1O[C@H](CO)[C@@H](O)[C@H](N)[C@H]1O,Isolate 53,3.13 µg/mL
CO[C@H]1/C=C/O[C@@]2(C)Oc3c(C)c(O)c4c(O)c(c(/C=N/N5CCN(C)CC5)c(O)c4c3C2=O)NC(=O)/C(C)=C\C=C\[C@H](C)[C@H](O)[C@@H](C)[C@@H](O)[C@@H](C)[C@H](OC(C)=O)[C@@H]1C,LPR,16 µg/mL
CC[C@H]1OC(=O)[C@H](C)[C@@H](O[C@H]2C[C@@](C)(OC)[C@@H](O)[C@H](C)O2)[C@H](C)[C@@H](O[C@@H]2O[C@H](C)C[C@H](N(C)C)[C@H]2O)[C@](C)(OC)C[C@@H](C)C(=O)[C@H](C)[C@@H](O)[C@]1(C)O,N-444,8 µg/mL
NC(=S)c1ccc(CSc2nc3ccccc3[nH]2)cc1,MY330/88,32 µM
COc1c(N2CCNC(C)C2)c(F)cc2c(=O)c(C(=O)O)cn(C3CC3)c12,N-966,8 µg/mL
COc1ccc(NS(=O)(=O)c2ccc(N)cc2)nn1,30 isolates,64 µg/mL
NC[C@H]1O[C@H](O[C@H]2[C@H](O)[C@@H](O[C@H]3O[C@H](CO)[C@@H](O)[C@H](N)[C@H]3O)[C@H](N)C[C@@H]2N)[C@H](O)[C@@H](O)[C@@H]1O,N-951 (HIV+),8 µg/mL
NCC[C@H](O)C(=O)N[C@@H]1C[C@H](N)[C@@H](O[C@H]2O[C@H](CN)[C@@H](O)[C@H](O)[C@H]2O)[C@H](O)[C@H]1O[C@H]1O[C@H](CO)[C@@H](O)[C@H](N)[C@H]1O,1012,10 µg/mL
Clc1ccccc1CSc1nc2ccccc2[nH]1,MY330/88,62 µM
CO[C@H]1/C=C/O[C@@]2(C)Oc3c(C)c(O)c4c(O)c(c5c(c4c3C2=O)NC2(CCN(CC(C)C)CC2)N=5)=NC(=O)/C(C)=C\C=C\[C@H](C)[C@H](O)[C@@H](C)[C@@H](O)[C@@H](C)[C@H](OC(C)=O)[C@@H]1C,32 isolates,1 µg/mL
NCCC[C@H](N)CC(=O)N[C@H]1CNC(=O)[C@H]([C@H]2C[C@H](O)NC(N)=N2)NC(=O)/C(=C/NC(N)=O)NC(=O)[C@H](CO)NC(=O)[C@H](CO)NC1=O,TMC 1403,6.25 µg/mL
CC(C)c1c(O)cc(C(N=C(N)N)C(=O)NCC(=O)O)cc1O,101,31 µg/mL
CO/N=C(\C(=O)N[C@@H]1C(=O)N2C(C(=O)O)=C(CSc3nc(=O)c(=O)[nH]n3C)CS[C@H]12)c1csc(N)n1,31 strains,32 µg/mL
NC[C@H]1O[C@H](O[C@H]2[C@H](O)[C@@H](O[C@H]3O[C@H](CO)[C@@H](O)[C@H](N)[C@H]3O)[C@H](N)C[C@@H]2N)[C@H](O)[C@@H](O)[C@@H]1O,TMC 1469,6.25 µg/mL
O=C(O)c1cn(C2CC2)c2c(F)c(N3CCSCC3)c(F)cc2c1=O,1760694,32 µg/mL
CC[C@H]1OC(=O)[C@H](C)[C@@H](O[C@H]2C[C@@](C)(OC)[C@@H](O)[C@H](C)O2)[C@H](C)[C@@H](O[C@@H]2O[C@H](C)C[C@H](N(C)C)[C@H]2O)[C@](C)(O)C[C@@H](C)CN(C)[C@H](C)[C@@H](O)[C@]1(C)O,32 isolates,5 µg/mL
CO[C@H]1/C=C/O[C@@]2(C)Oc3c(C)c(O)c4c(O)c(c(/C=N/N5CCN(C/C=C/c6ccccc6)CC5)c(O)c4c3C2=O)NC(=O)/C(C)=C\C=C\[C@H](C)[C@H](O)[C@@H](C)[C@@H](O)[C@@H](C)[C@H](OC(C)=O)[C@@H]1C,SK46,0.06 µg/mL
Cc1onc(-c2ccccc2)c1C(=O)N[C@@H]1C(=O)N2[C@@H]1SC(C)(C)[C@@H]2C(=O)O,31 strains,2 µg/mL
c1ccc(CSc2nc3ccccc3[nH]2)cc1,MY330/88,125 µM
CC[C@@H](CO)NCCN[C@@H](CC)CO,211-5,1.9 µg/mL
CO[C@H]1/C=C/O[C@@]2(C)Oc3c(C)c(O)c4c(O)c(c(/C=N/N5CCN(C)CC5)c(O)c4c3C2=O)NC(=O)/C(C)=C\C=C\[C@H](C)[C@H](O)[C@@H](C)[C@@H](O)[C@@H](C)[C@H](OC(C)=O)[C@@H]1C,30 isolates,16 µg/mL
CCCc1cc(C(N)=S)ccn1,32 isolates,10 µg/mL
CC[C@@H](CO)NCCN[C@@H](CC)CO,3009-4,3.8 µg/mL
Cc1[nH]c(-c2ccc(Cl)cc2)cc1CN1CCN(C)CC1,103317,>64 µg/mL
CCN1CCN(C(=O)NC(C(=O)N[C@@H]2C(=O)N3C(C(=O)O)=C(CSc4nnnn4C)CS[C@H]23)c2ccc(O)cc2)C(=O)C1=O,31 strains,64 µg/mL
CC1COc2c(N3CCN(C)CC3)c(F)cc3c(=O)c(C(=O)O)cn1c23,30 isolates,64 µg/mL
CCCCCCn1c(C)cc(CN2CCOCC2)c1C,103317,>64 µg/mL
CC[C@@H](CO)NCCN[C@@H](CC)CO,30 isolates,0.03–16 µg/mL
CCCSc1nc2ccccc2[nH]1,MY330/88,250 µM
CCCCCCCCOC1OC(C)C(O[C@@H]2O[C@@H]([C@H](O)CO)[C@H](O)[C@H]2O)C(O)C1O,NJ211,>128 µg/mL
Cc1c(CN2CCOCC2)c(CN2CCOCC2)c(-c2ccc(Cl)cc2)n1Cc1ccccc1,103317,>64 µg/mL
CC1COc2c(N3CCN(C)CC3)c(F)cc3c(=O)c(C(=O)O)cn1c23,969/HIV-,>16 µg/mL
CC[C@@H](CO)NCCN[C@@H](CC)CO,N-444,16 µg/mL
Cc1ccc(-c2ccc(Cl)cc2)n1Cc1ccccc1,103317,>16 µg/mL
C[C@@H](O)[C@H]1C(=O)N2C(C(=O)O)=C(SCCN=CN)C[C@H]12,32 isolates,4 µg/mL

Two numbers with a dash give a range or band.